The values are deposited in ChEMBL (CHEMBL3988442, “University of Dundee, Small-Polar-MMV Screening Library” (2021)).

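Growth of Mycobacterium tuberculosis over 3 days (7H9 medium with glucose and tyloxapol); the read-out is not stated. Concentration: 500 µM. Direction is inferred from retests: higher values go with more growth inhibition. About 18,000 compounds were tested under these conditions; 7.9% (about 1,400) showed 50% or more at least once.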

Results are given as percent effect.
The record does not define 0% and 100%; most values in the screen are far below 50% and negative numbers occur (in some assays of this library far below -100).
This is part of a subset picked to be rich in strong results.

| # | structure | effect |
|---|---|---|
| 1 | `COc1cc(C(=O)NC(C)CC#N)ccc1C` (centres unmarked) | 74.61 |
| 2 | `CC(CNC(=O)c1ccc(C#N)cc1)N1CCCC1` (centres unmarked) | 21.55 |
| 3 | `CC(Cn1cccn1)C(=O)N(C)CCc1cnn(C)c1` (centres unmarked) | -13.48 |
| 4 | `COCc1nc2n(n1)CCCC2N` (centres unmarked) | -3.41 |
| 5 | `NC(=O)N1CCCC(C(=O)NCc2ccccc2)C1` (centres unmarked) | 7.51 |
| 6 | `CS(=O)(=O)c1nccn1CCN1CCCCC1` | -17.25 |
| 7 | `O=C(CCn1cccc1)NCc1ccco1` | 56.11 |
| 8 | `CCn1cncc1C1CCCCN1` (centres unmarked) | 12.12 |
| 9 | `CCNC(=O)c1nnsc1-c1ccc(C)cc1` | 40.97 |
| 10 | `CC(C)(O)c1nnc(N)o1` | 6.048 |
| 11 | `N[C@@H]1C[C@H]1c1cccc(F)c1` | 33.72 |
| 12 | `Cn1ccnc(Cl)c1=O` | -1.29 |
| 13 | `Cn1cc(CNS(N)(=O)=O)cn1` | 7.18 |
| 14 | `Cn1ncc2ccc(CN)cc21` | 13.74 |
| 15 | `CNC(=O)[C@@H]1CCCN1CC1CCNCC1` | 5.695 |
| 16 | `N#CCCN1CCN(C(=O)c2ccc(Cl)cc2F)CC1` | 43.31 |
| 17 | `O=C(CSc1ncnn1-c1ccccc1)N1CCCC1` | 59.16 |
| 18 | `O=C(NCCN1CC=CC1)c1c(O)cc(F)cc1F` | 23.32 |
| 19 | `CSCC(C)(O)CNC(=O)c1cccc(N(C)C)c1` (centres unmarked) | 30.58 |
| 20 | `CN(C)[C@H]1CN(Cc2cccc(OCCO)c2)C[C@@H]1O` | -10.54 |
| 21 | `N[C@H]1c2ccccc2C[C@H]1F` | 6.092 |
| 22 | `C[C@@H]1CN(C(=O)CCc2ccnn2C)C[C@H](C)O1` | 8.975 |
| 23 | `O=C(NCC1CCCO1)N1CCC2(C1)OCCO2` (centres unmarked) | 1.617 |
| 24 | `Cc1cc(C(=O)NCCC(=O)N2CCCC2)c(C)o1` | 3.281 |
| 25 | `CS(=O)(=O)NCc1ccnc(N2CCCCCC2)c1` | 10.16 |
| 26 | `Cc1ccc(Br)c(C(=O)NC2CCS(=O)(=O)CC2)c1` | -0.3053 |
| 27 | `CCCN(C)Cc1nc(-c2cccnc2)no1` | 42.16 |
| 28 | `CN1CCC(CN(C)C(=O)c2cccc(F)c2F)C1` (centres unmarked) | 8.893 |
| 29 | `O=C(NC1CCNCC1)c1ccc(F)cc1` | 4.11 |
| 30 | `OCCNCCNCc1ccc(-c2ccccc2Cl)o1` | 92.56 |
| 31 | `O=C(NCC(O)c1ccc(Cl)cc1)Nc1ccccn1` (centres unmarked) | 75.71 |
| 32 | `CN(Cc1cnn(C)c1)C(=O)c1cc(Br)c[nH]1` | 52.47 |
| 33 | `COc1ccnc(NC(=O)NCc2cccs2)c1` | 67.39 |
| 34 | `CC(C)CSCCSc1nnc(N)[nH]1` | 51.6 |
| 35 | `N#Cc1ncn(CC(=O)c2ccc3c(c2)CCO3)n1` | 15.85 |
| 36 | `FC(F)Oc1cccc(C2CNCCO2)c1` (centres unmarked) | 50.16 |
| 37 | `O=C(Cc1cccs1)N1CCNCC1` | 1.401 |
| 38 | `O=C(CO)N1CCCC(CCc2ccccc2F)C1` (centres unmarked) | 62.66 |
| 39 | `CN(C)C[C@@H]1[C@H]2CN(Cc3cccnc3)C[C@@H]12` | 9.552 |
| 40 | `Cc1cc(C(=O)NC2CC2)cc(S(=O)(=O)N(C)C)c1C` | 3.153 |
| 41 | `CC(NCCCN1CCCC1)C(=O)NC1CCCC1` (centres unmarked) | 26.11 |
| 42 | `N#Cc1cnc(NCC2(O)CCC2)cn1` | 5.948 |
| 43 | `CCOCCOc1cccc(NC(=O)NCCN)c1` | 4.84 |
| 44 | `COCCNC(=O)Nc1ccc(OC(F)F)c(F)c1` | 66.66 |
| 45 | `COc1cccc(CNc2nc(C(C)C)nn2C)n1` | 62.63 |
| 46 | `CCOC(=O)N1CCC(N2CCN(CCO)CC2)CC1` | 3.766 |
| 47 | `Cc1ccccc1NC(=O)c1ncccn1` | 0.05112 |
| 48 | `Cc1ccc(C(=O)N(CC2CCOC2)C2CC2)c(=O)[nH]1` (centres unmarked) | 3.121 |
| 49 | `CC(C)CC(O)C(=O)N1CCN(c2cccnc2)CC1` (centres unmarked) | 52.96 |
| 50 | `Cc1ccc(N2CCCC(N)C2)cc1` (centres unmarked) | 41.66 |
| 51 | `COc1cc(CCN)c(SC)cc1OC` | 19.33 |
| 52 | `CN(C)C(CNC(=O)C1CC1)c1ccsc1` (centres unmarked) | 8.235 |
| 53 | `COCCNc1ccc(OC)c(OC)c1` | 52.76 |
| 54 | `CCCn1cc(NC(=O)CS(=O)(=O)CCC)cn1` | 0.000860 |
| 55 | `Cc1ccc([C@@H](O)CN)cc1` | 15.43 |
| 56 | `CC(Oc1ccc(S(C)(=O)=O)cc1)C(=O)N(C)C` (centres unmarked) | -6.093 |
| 57 | `CCCc1nnc(NC2CCN(C(=O)OCC)CC2)o1` | 59.68 |
| 58 | `CC(C)N(C)S(=O)(=O)N(C)Cc1ccc(Br)o1` | 72.58 |
| 59 | `CN1CN(C(=O)c2ccc(Br)cc2Cl)CC1=O` | 11.48 |
| 60 | `NC1CCCc2occc21` (centres unmarked) | 63.68 |
| 61 | `CCSC(C)C(=O)N(C)CCc1ccncc1` (centres unmarked) | 21.7 |
| 62 | `CC(c1nc(-c2ccccn2)no1)N1CCSCC1` (centres unmarked) | 54.63 |
| 63 | `COCCNc1nnc(SCc2ccc(Br)cn2)s1` | 64.38 |
| 64 | `O=C1CN(CC(=O)N2CCCCCCC2)CCN1` | 8.697 |
| 65 | `CCC(C)N(CCOC)Cc1cc(=O)n(C)c(=O)n1C` (centres unmarked) | 8.889 |
| 66 | `CCOc1cccc(CNS(C)(=O)=O)c1` | 47.87 |
| 67 | `CC(C#N)CNC(=O)OC(C)(C)C` (centres unmarked) | -6.106 |
| 68 | `CC(C)Cc1nc(C#N)c(N)o1` | 19.09 |
| 69 | `CCNC(=O)CCc1nc(-c2ccccc2OC)no1` | 24.22 |
| 70 | `O=C(CCc1ccccc1)NC1CCCCNC1=O` (centres unmarked) | -1.723 |
| 71 | `Cc1ccc(CCNC(=O)CSCCN2CCCC2)o1` | 53.81 |
| 72 | `CC(CN1CCOCC1)Nc1ccncn1` (centres unmarked) | 0.4997 |

Some entries from above, unchanged:

structure	effect
FC(F)Oc1cccc(C2CNCCO2)c1 (centres unmarked)	50.16
COCCNc1ccc(OC)c(OC)c1	52.76
CCOCCOc1cccc(NC(=O)NCCN)c1	4.84
CC(Cn1cccn1)C(=O)N(C)CCc1cnn(C)c1 (centres unmarked)	-13.48
CCCn1cc(NC(=O)CS(=O)(=O)CCC)cn1	0.000860
OCCNCCNCc1ccc(-c2ccccc2Cl)o1	92.56
Cc1cc(C(=O)NCCC(=O)N2CCCC2)c(C)o1	3.281